In article PMC12326988, “Synthetic host defense peptide inhibits SARS-CoV-2 replication in vitro” (Antimicrobial Agents and Chemotherapy, 2025):

System: SARS-CoV-2 (Wuhan) spike-pseudotyped virus
Conditions: characterization of controls, Fig. S2E

shACE2
EC50, entry of pseudotyped virus into HEK293T-hACE2 cells: 0.93 µg/mL
